The numbers were not newly measured in publication PMC11768059, “Guanidines Conjugated with Cell-Penetrating Peptides: A New Approach for the Development of Antileishmanial Molecules” (Molecules, 2025), which cites them from elsewhere.

For the data set, the target named is cysteine protease LmCPB2.8∆CTE (CPB) (Leishmania mexicana, UniProt P36400). The following applies: read-out: IC50 on LmCPB2.8∆CTE (CPB); cited from earlier work.

The term IC50 denotes the concentration at which inhibition is half-maximal. Take `CC(C)(C)c1ccc(N=C(NCc2ccccc2)NC(=O)c2ccccc2)cc1`: the IC50 was 6 µM.
